Data from PMC10808981, “Synthesis and structure–activity relationships of aryl fluorosulfate-based inhibitors as novel antitubercular agents” (Bioorganic & Medicinal Chemistry Letters, 2024).

System: Mtb H37Rv
Test: MIC determination in Mtb H37Rv, Microdilution Alamar Blue Assay (MABA)
Assay type: cell-based, Mycobacterium tuberculosis
Conditions: not given

Row | Molecule | fold increase in anti-TB activity (H37Rv MIC)
1 | NC(=O)c1ncn(-c2cc(F)c(COc3ccc(OS(=O)(=O)F)cc3)c(F)c2)n1 [Compound 20 k, 4-((4-(3-carbamoyl-1H-1,2,4-triazol-1-yl)-2,6-difluorobenzyl)oxy)phenyl sulfurofluoridate] | 4 fold
2 | 4-((2,6-difluoro-4-(1H-1,2,3-triazol-1-yl)benzyl)oxy)phenyl sulfurofluoridate [Compound 3 m] | 3 fold
3 | O=S(=O)(F)Oc1ccc(OCc2c(F)cc(-n3ccnn3)cc2F)cc1 [Compound 3 l, 4-((2,6-difluoro-4-(1H-1,2,3-triazol-1-yl)benzyl)oxy)phenyl sulfurofluoridate] | 3 fold
4 | Cc1ncn(-c2cc(F)c(COc3ccc(OS(=O)(=O)F)cc3)c(F)c2)n1 [Compound 20a, 4-((2,6-difluoro-4-(3-methyl-1H-1,2,4-triazol-1-yl)benzyl)oxy)phenyl sulfurofluoridate] | 2 fold

Same assay, conditions: compared to initial lead 3a

Row | Molecule | fold increase in anti-TB activity (H37Rv MIC)
5 | O=S(=O)(F)Oc1ccc(OCc2c(F)cc(-n3cncn3)cc2F)cc1 [Compound 3i, 4-((2,6-difluoro-4-(1H-1,2,4-triazol-1-yl)benzyl)oxy)phenyl sulfurofluoridate] | 4 fold
6 | O=S(=O)(F)Oc1ccc(OCc2ccc(-n3cncn3)cc2F)cc1 [Compound 3d, 4-((2-fluoro-4-(1H-1,2,4-triazol-1-yl)benzyl)oxy)phenyl sulfurofluoridate] | 4 fold
7 | CS(=O)(=O)Nc1ncn(-c2cc(F)c(COc3ccc(OS(=O)(=O)F)cc3)c(F)c2)n1 [Compound 21b, 4-((2,6-difluoro-4-(3-(methylsulfonamido)-1H-1,2,4-triazol-1-yl)benzyl)oxy)phenyl sulfurofluoridate] | 47 fold
